Measurements reported in patent US20220089698A1, “ANTIBODIES THAT TARGET HIV GP120 AND METHODS OF USE” (published 2022).

Columns and labels:
Test in all cases: cell-based or functional assay
[1] = molecular target: HIV-1 envelope glycoprotein (gp120) of virus 7141 (HIV-1)
[2] = molecular target: HIV-1 envelope glycoprotein (gp120) of virus VS001 (HIV-1)
[3] = molecular target: HIV-1 envelope glycoprotein (gp120) of virus 92US727 (HIV-1)

| Binder | Neutralization IC50 [1] [µg/mL] | Neutralization IC50 [2] [µg/mL] | Neutralization IC50 [3] [µg/mL] |
| --- | --- | --- | --- |
| 3-1 (antibody, human IgG1, kappa) heavy: QVQLLQSGAAVTKPGASVRVSCEASGYNIRDYFIHWWRQAPGQGLQWVGWINPKTGQPNNPRQFQGRVSLTRHASWDFDTFSFYMDLKALRSDDTAVYFCARQRSDYWDFDVWGSGTQVTVSSASTKGPSVFPLAPSSKSTSGGTAALGCLVKDYFPEPVTVSWNSGALTSGVHTFPAVLQSSGLYSLSSVVTVPSSSLGTQTYICNVNHKPSNTKVDKKVEPKSCDKTHTCPPCPAPELLAGPDVFLFPPKPKDTLMISRTPEVTCVVVDVSHEDPEVKFNWYVDGVEVHNAKTKPREEQYNSTYRVVSVLTVLHQDWLNGKEYKCKVSNKALPLPEEKTISKAKGQPREPQVYTLPPSREEMTKNQVSLTCLVKGFYPSDIAVEWESNGQPENNYKTTPPVLDSDGSFFLYSKLTVDKSRWQQGNVFSCSVLHEALHSHYTQKSLSLSPGK light: not shown | 4.03 | 0.1 | 3.92 |
| 3.1.10-1 (antibody, human IgG1, kappa) heavy: QVQLLQSGAAVTKPGASVRVSCEASGYNIRDYFIHWWRQAPGQGLQWVGWINPKTGQPNNPRQFQGRVSLTRHASWDFDTFSFYMDLKALRSDDTAVYFCARQRSDYWDFDVWGSGTQVTVSSASTKGPSVFPLAPSSKSTSGGTAALGCLVKDYFPEPVTVSWNSGALTSGVHTFPAVLQSSGLYSLSSVVTVPSSSLGTQTYICNVNHKPSNTKVDKKVEPKSCDKTHTCPPCPAPELLAGPDVFLFPPKPKDTLMISRTPEVTCVVVDVSHEDPEVKFNWYVDGVEVHNAKTKPREEQYNSTYRVVSVLTVLHQDWLNGKEYKCKVSNKALPLPEEKTISKAKGQPREPQVYTLPPSREEMTKNQVSLTCLVKGFYPSDIAVEWESNGQPENNYKTTPPVLDSDGSFFLYSKLTVDKSRWQQGNVFSCSVLHEALHSHYTQKSLSLSPGK light: not shown | 44.8 | 2.24 | > 50 |
| 3.1.14-1 (antibody, human IgG1, kappa) heavy: QVQLLQSGAAVTKPGASVRVSCEASGYNIRDYFIHWWRQAPGQGLQWVGWINPKTGQPNNPRQFQGRVSLTRHASWDFDTFSFYMDLKALRSDDTAVYFCARQRSDYWDFDVWGSGTQVTVSSASTKGPSVFPLAPSSKSTSGGTAALGCLVKDYFPEPVTVSWNSGALTSGVHTFPAVLQSSGLYSLSSVVTVPSSSLGTQTYICNVNHKPSNTKVDKKVEPKSCDKTHTCPPCPAPELLAGPDVFLFPPKPKDTLMISRTPEVTCVVVDVSHEDPEVKFNWYVDGVEVHNAKTKPREEQYNSTYRVVSVLTVLHQDWLNGKEYKCKVSNKALPLPEEKTISKAKGQPREPQVYTLPPSREEMTKNQVSLTCLVKGFYPSDIAVEWESNGQPENNYKTTPPVLDSDGSFFLYSKLTVDKSRWQQGNVFSCSVLHEALHSHYTQKSLSLSPGK light: not shown | 6.42 | 0.19 | > 27 |
| 1.1.115-1 (antibody, human IgG1, kappa) heavy: QVQLLQSGAAVTKPGASVRVSCEASGYNIRDYFIHWWRQAPGQGLQWVGWINPKTGQPNNPRQFQGRVSLTRHASWDFDTFSFYMDLKALRSDDTAVYFCARQRSDYWDFDVWGSGTQVTVSSASTKGPSVFPLAPSSKSTSGGTAALGCLVKDYFPEPVTVSWNSGALTSGVHTFPAVLQSSGLYSLSSVVTVPSSSLGTQTYICNVNHKPSNTKVDKKVEPKSCDKTHTCPPCPAPELLAGPDVFLFPPKPKDTLMISRTPEVTCVVVDVSHEDPEVKFNWYVDGVEVHNAKTKPREEQYNSTYRVVSVLTVLHQDWLNGKEYKCKVSNKALPLPEEKTISKAKGQPREPQVYTLPPSREEMTKNQVSLTCLVKGFYPSDIAVEWESNGQPENNYKTTPPVLDSDGSFFLYSKLTVDKSRWQQGNVFSCSVLHEALHSHYTQKSLSLSPGK light: not shown | 10.1 | 0.75 | > 50 |
| 1.1.116-1 (antibody, human IgG1, kappa) heavy: QVQLLQSGAAVTKPGASVRVSCEASGYNIRDYFIHWWRQAPGQGLQWVGWINPKTGQPNNPRQFQGRVSLTRHASWDFDTFSFYMDLKALRSDDTAVYFCARQRSDYWDFDVWGSGTQVTVSSASTKGPSVFPLAPSSKSTSGGTAALGCLVKDYFPEPVTVSWNSGALTSGVHTFPAVLQSSGLYSLSSVVTVPSSSLGTQTYICNVNHKPSNTKVDKKVEPKSCDKTHTCPPCPAPELLAGPDVFLFPPKPKDTLMISRTPEVTCVVVDVSHEDPEVKFNWYVDGVEVHNAKTKPREEQYNSTYRVVSVLTVLHQDWLNGKEYKCKVSNKALPLPEEKTISKAKGQPREPQVYTLPPSREEMTKNQVSLTCLVKGFYPSDIAVEWESNGQPENNYKTTPPVLDSDGSFFLYSKLTVDKSRWQQGNVFSCSVLHEALHSHYTQKSLSLSPGK light: not shown | 14.6 | 0.44 | > 36 |
| 3.1.11-1 (antibody, human IgG1, kappa) heavy: QVQLLQSGAAVTKPGASVRVSCEASGYNIRDYFIHWWRQAPGQGLQWVGWINPKTGQPNNPRQFQGRVSLTRHASWDFDTFSFYMDLKALRSDDTAVYFCARQRSDYWDFDVWGSGTQVTVSSASTKGPSVFPLAPSSKSTSGGTAALGCLVKDYFPEPVTVSWNSGALTSGVHTFPAVLQSSGLYSLSSVVTVPSSSLGTQTYICNVNHKPSNTKVDKKVEPKSCDKTHTCPPCPAPELLAGPDVFLFPPKPKDTLMISRTPEVTCVVVDVSHEDPEVKFNWYVDGVEVHNAKTKPREEQYNSTYRVVSVLTVLHQDWLNGKEYKCKVSNKALPLPEEKTISKAKGQPREPQVYTLPPSREEMTKNQVSLTCLVKGFYPSDIAVEWESNGQPENNYKTTPPVLDSDGSFFLYSKLTVDKSRWQQGNVFSCSVLHEALHSHYTQKSLSLSPGK light: not shown | 8.7 | 0.57 | > 44 |
| 1.1.67-1 (antibody, human IgG1, kappa) heavy: QVQLLQSGAAVTKPGASVRVSCEASGYNIRDYFIHWWRQAPGQGLQWVGWINPKTGQPNNPRQFQGRVSLTRHASWDFDTFSFYMDLKALRSDDTAVYFCARQRSDYWDFDVWGSGTQVTVSSASTKGPSVFPLAPSSKSTSGGTAALGCLVKDYFPEPVTVSWNSGALTSGVHTFPAVLQSSGLYSLSSVVTVPSSSLGTQTYICNVNHKPSNTKVDKKVEPKSCDKTHTCPPCPAPELLAGPDVFLFPPKPKDTLMISRTPEVTCVVVDVSHEDPEVKFNWYVDGVEVHNAKTKPREEQYNSTYRVVSVLTVLHQDWLNGKEYKCKVSNKALPLPEEKTISKAKGQPREPQVYTLPPSREEMTKNQVSLTCLVKGFYPSDIAVEWESNGQPENNYKTTPPVLDSDGSFFLYSKLTVDKSRWQQGNVFSCSVLHEALHSHYTQKSLSLSPGK light: not shown | 3.76 | 0.15 | 8.1 |
| 3.1.8-1 (antibody, human IgG1, kappa) heavy: QVQLLQSGAAVTKPGASVRVSCEASGYNIRDYFIHWWRQAPGQGLQWVGWINPKTGQPNNPRQFQGRVSLTRHASWDFDTFSFYMDLKALRSDDTAVYFCARQRSDYWDFDVWGSGTQVTVSSASTKGPSVFPLAPSSKSTSGGTAALGCLVKDYFPEPVTVSWNSGALTSGVHTFPAVLQSSGLYSLSSVVTVPSSSLGTQTYICNVNHKPSNTKVDKKVEPKSCDKTHTCPPCPAPELLAGPDVFLFPPKPKDTLMISRTPEVTCVVVDVSHEDPEVKFNWYVDGVEVHNAKTKPREEQYNSTYRVVSVLTVLHQDWLNGKEYKCKVSNKALPLPEEKTISKAKGQPREPQVYTLPPSREEMTKNQVSLTCLVKGFYPSDIAVEWESNGQPENNYKTTPPVLDSDGSFFLYSKLTVDKSRWQQGNVFSCSVLHEALHSHYTQKSLSLSPGK light: not shown | 3.51 | 0.11 | 1.15 |
| 1.44.1-1 (antibody, human IgG1, kappa) heavy: QVQLLQSGAAVTKPGASVRVSCEASGYKIRDYFIHWWRQAPGQGLQWVGWINPKTGQPNNPRQFQGRVSLTRHASWDFDTFSFYMDLKALRSDDTAVYFCARQRSDYWDFDVWGSGTQVTVSSASTKGPSVFPLAPSSKSTSGGTAALGCLVKDYFPEPVTVSWNSGALTSGVHTFPAVLQSSGLYSLSSVVTVPSSSLGTQTYICNVNHKPSNTKVDKKVEPKSCDKTHTCPPCPAPELLAGPDVFLFPPKPKDTLMISRTPEVTCVVVDVSHEDPEVKFNWYVDGVEVHNAKTKPREEQYNSTYRVVSVLTVLHQDWLNGKEYKCKVSNKALPLPEEKTISKAKGQPREPQVYTLPPSREEMTKNQVSLTCLVKGFYPSDIAVEWESNGQPENNYKTTPPVLDSDGSFFLYSKLTVDKSRWQQGNVFSCSVLHEALHSHYTQKSLSLSPGK light: not shown | 1.43 | 0.13 |  |
| 1.1.10-1 (antibody, human IgG1, kappa) heavy: QVQLLQSGAAVTKPGASVRVSCEASGYNIRDYFIHWWRQAPGQGLQWVGWINPKTGQPNNPRQFQGRVSLTRHASWDFDTFSFYMDLKALRSDDTAVYFCARQRSDYWDFDVWGSGTQVTVSSASTKGPSVFPLAPSSKSTSGGTAALGCLVKDYFPEPVTVSWNSGALTSGVHTFPAVLQSSGLYSLSSVVTVPSSSLGTQTYICNVNHKPSNTKVDKKVEPKSCDKTHTCPPCPAPELLAGPDVFLFPPKPKDTLMISRTPEVTCVVVDVSHEDPEVKFNWYVDGVEVHNAKTKPREEQYNSTYRVVSVLTVLHQDWLNGKEYKCKVSNKALPLPEEKTISKAKGQPREPQVYTLPPSREEMTKNQVSLTCLVKGFYPSDIAVEWESNGQPENNYKTTPPVLDSDGSFFLYSKLTVDKSRWQQGNVFSCSVLHEALHSHYTQKSLSLSPGK light: not shown | 5.43 | 0.17 | 45 |
| 1.1.64-1 (antibody, human IgG1, kappa) heavy: QVQLLQSGAAVTKPGASVRVSCEASGYNIRDYFIHWWRQAPGQGLQWVGWINPKTGQPNNPRQFQGRVSLTRHASWDFDTFSFYMDLKALRSDDTAVYFCARQRSDYWDFDVWGSGTQVTVSSASTKGPSVFPLAPSSKSTSGGTAALGCLVKDYFPEPVTVSWNSGALTSGVHTFPAVLQSSGLYSLSSVVTVPSSSLGTQTYICNVNHKPSNTKVDKKVEPKSCDKTHTCPPCPAPELLAGPDVFLFPPKPKDTLMISRTPEVTCVVVDVSHEDPEVKFNWYVDGVEVHNAKTKPREEQYNSTYRVVSVLTVLHQDWLNGKEYKCKVSNKALPLPEEKTISKAKGQPREPQVYTLPPSREEMTKNQVSLTCLVKGFYPSDIAVEWESNGQPENNYKTTPPVLDSDGSFFLYSKLTVDKSRWQQGNVFSCSVLHEALHSHYTQKSLSLSPGK light: not shown | 0.64 | 0.05 | 0.55 |
